{"source": "patent US20200024330A1", "about": "(published 2020)", "binders": {"B1": {"name": "4993_K13 (PGT-141) (antibody, V domains shown)", "VH": "QVQLVQSGPEVKKPGSSVKVSCKASGNTFSKYDVHWVRQATGQGLEWVGWMSHEGDKTESAQRFKGRVTFTRDTSASTAYMELRGLTSDDTAIYYCTRGSKHRLRDYVLYDDYGLINYQEWNDYLEFLDVWGHGTAVTVSS", "VL": "DTVVTQSPLSLPVTPGEAASMSCSSTQSLRHSNGANYLAWYQHKPGQSPRLLIRLGSQRASGVPDRFSGSGSGTHFTLKISRVEAEDAAIYYCMQGLNRPWTFGKGTKLEIK"}, "B2": {"name": "PGT-141 (antibody, V domains shown)", "VH": "B1 VH", "VL": "B1 VL"}, "B3": {"name": "4980_N08 (PGT-143) (antibody, V domains shown)", "VH": "B1 VH with V5E, P9A", "VL": "B1 VL with S24T, A85P"}, "B4": {"name": "PGT-143 (antibody, V domains shown)", "VH": "B1 VH with V5E, P9A", "VL": "B1 VL with S24T, A85P"}, "B5": {"name": "1456_P20 (PG20) (antibody, V domains shown)", "VH": "QVRLVQSGPEVKKPGSSVTVSCQASGGTFSSYAFTWVRQAPGQGLEWLGMVTPIFGEAKYSQRFEGRVTITADESTSTTSIELRGLTSEDTAIYYCARDRRAVPIATDNWLDPWGQGTLVTVSS", "VL": "DIQLTQSPSSLSASVGDRVSITCRASQTINNYLNWYQQTPGKAPKLLIYGASNLQNGVPSRFSGSGSGTDFTLTISSLQPEDFATYYCQQSFSTPRTFGQGTRLDIKR"}}, "test_in_all_cases": "cell-based or functional assay", "key": {"[1]": {"target": "HIV-1 Env of isolate MG RM-A-004 (pseudovirus) (HIV-1)"}, "[2]": {"target": "HIV-1 Env of isolate MG RM-C-001 (HIV-1)"}, "[3]": {"target": "HIV-1 Env of isolate MG RM-C-008 (HIV-1)"}, "[4]": {"target": "HIV-1 Env of isolate MG RM-C-007 (HIV-1)"}, "[5]": {"target": "HIV-1 Env of isolate MG RM-C-013 (HIV-1)"}, "[6]": {"target": "HIV-1 Env of isolate MG RM-C-012 (HIV-1)"}, "[7]": {"target": "HIV-1 Env of isolate MG RM-C-005 (HIV-1)"}, "[8]": {"target": "HIV-1 Env of isolate MG RM-C-004 (HIV-1)"}, "[9]": {"target": "HIV-1 92BR020 envelope protein (Env) on pseudotyped virus (HIV-1 isolate 92BR020)"}, "[10]": {"target": "HIV-1 93IN905 envelope protein (Env) on pseudotyped virus (HIV-1 isolate 93IN905)"}, "[11]": {"target": "HIV-1 IAVI_C22 envelope protein (Env) on pseudotyped virus (HIV-1 isolate IAVI C22)"}, "[12]": {"target": "HIV-1 92TH021 envelope protein (Env) on pseudotyped virus (HIV-1 isolate 92TH021)"}, "[13]": {"target": "HIV-1 94UG103 envelope protein (Env) on pseudotyped virus (HIV-1 isolate 94UG103)"}, "[14]": {"target": "HIV-1 NL43 envelope protein (Env) on pseudotyped virus (HIV-1 NL43)"}}, "note": "Where a chain is given by its changes, count along the chain named.", "data": [{"binder": "B1", "values": [{"measurement": "IC50 (µg/mL), pseudovirus neutralization", "setting": "[1]", "value": 0.007, "unit": "µg/mL"}]}, {"binder": "B2", "values": [{"measurement": "neutralization IC50", "setting": "[2]", "value": "> 50", "unit": "µg/mL"}, {"measurement": "neutralization IC50", "setting": "[3]", "value": "> 50", "unit": "µg/mL"}, {"measurement": "neutralization IC50", "setting": "[4]", "value": "> 50", "unit": "µg/mL"}, {"measurement": "neutralization IC50", "setting": "[5]", "value": "> 50", "unit": "µg/mL"}, {"measurement": "neutralization IC50", "setting": "[6]", "value": "> 50", "unit": "µg/mL"}, {"measurement": "neutralization IC50", "setting": "[7]", "value": 8.33, "unit": "µg/mL"}, {"measurement": "neutralization IC50", "setting": "[8]", "value": "> 50", "unit": "µg/mL"}]}, {"binder": "B3", "values": [{"measurement": "IC50 (µg/mL), pseudovirus neutralization", "setting": "[1]", "value": 0.007, "unit": "µg/mL"}]}, {"binder": "B4", "values": [{"measurement": "neutralization IC50", "setting": "[2]", "value": "> 50", "unit": "µg/mL"}, {"measurement": "neutralization IC50", "setting": "[3]", "value": "> 50", "unit": "µg/mL"}, {"measurement": "neutralization IC50", "setting": "[4]", "value": "> 50", "unit": "µg/mL"}, {"measurement": "neutralization IC50", "setting": "[5]", "value": "> 50", "unit": "µg/mL"}, {"measurement": "neutralization IC50", "setting": "[6]", "value": "> 50", "unit": "µg/mL"}, {"measurement": "neutralization IC50", "setting": "[8]", "value": "> 50", "unit": "µg/mL"}]}, {"binder": "B5", "values": [{"measurement": "IC50, pseudovirus neutralization, 1 hour Virus/Ab Incubation", "setting": "[9]", "value": "> 50", "unit": "µg/mL"}, {"measurement": "IC50, pseudovirus neutralization, 18 hour Virus/Ab Incubation", "setting": "[9]", "value": "> 50", "unit": "µg/mL"}, {"measurement": "IC50, pseudovirus neutralization, 1 hour Virus/Ab Incubation", "setting": "[10]", "value": "> 50", "unit": "µg/mL"}, {"measurement": "IC50, pseudovirus neutralization, 18 hour Virus/Ab Incubation", "setting": "[10]", "value": 3.84, "unit": "µg/mL"}, {"measurement": "IC50, pseudovirus neutralization, 1 hour Virus/Ab Incubation", "setting": "[11]", "value": "> 50", "unit": "µg/mL"}, {"measurement": "IC50, pseudovirus neutralization, 18 hour Virus/Ab Incubation", "setting": "[11]", "value": "> 50", "unit": "µg/mL"}, {"measurement": "IC50, pseudovirus neutralization, 1 hour Virus/Ab Incubation", "setting": "[12]", "value": "> 50", "unit": "µg/mL"}, {"measurement": "IC50, pseudovirus neutralization, 18 hour Virus/Ab Incubation", "setting": "[12]", "value": "> 50", "unit": "µg/mL"}, {"measurement": "IC50, pseudovirus neutralization, 1 hour Virus/Ab Incubation", "setting": "[13]", "value": "> 50", "unit": "µg/mL"}, {"measurement": "IC50, pseudovirus neutralization, 18 hour Virus/Ab Incubation", "setting": "[13]", "value": "> 50", "unit": "µg/mL"}, {"measurement": "IC50, pseudovirus neutralization, 1 hour Virus/Ab Incubation", "setting": "[14]", "value": 0.2, "unit": "µg/mL"}, {"measurement": "IC50, pseudovirus neutralization, 18 hour Virus/Ab Incubation", "setting": "[14]", "value": 0.05, "unit": "µg/mL"}]}]}
